Experimental data from US9388389B2, “JFH-1 based HCV cell culture systems for NS5A of genotypes 1-7” (Hvidovre Hospital, priority 2009, dated 2016).

Tested on: J6/JFH1 recombinants with genotype specific NS5A
Assay: IFN-alpha 2b treatment of infected cultures
Assay type: cell-based, hepatitis C virus
Details: treated one and two days after infection, NS3 immunostaining on day three; FIG. 15
Description: Huh7.5 cells were infected with J6/JFH1 with NS5A of the indicated isolate (or ISDR type). J6/JFH1 was included with two infectious doses to control for impact of dose variability. The infectious dose of other recombinants was in the range between. Cultures were treated with IFN-alpha 2b at the given dose one and two days after infection. On day three cells were fixed and immunostained for NS3 expression. The number of single infected cells was determined by automated counting of individual wells. Values are shown as percentage infected cells compared to the average for non-treated controls of the given recombinant. […]
5×10^3 naïve Huh7.5 cells were plated per well in a poly-D-lysine coated 96-well plate (Nunc, Roskilde, D K) one day before infection with different recombinant viruses. […] In parallel, cell viability was monitored with CellTiter™ 96 AQueous One Solution Cell Proliferation Assay (Promega, Madison, Wis. USA). The number of single infected cells was determined by automated counting of individual wells as described above.
J6/JFH1 recombinants with genotype specific NS5A and the genotype 1b ISDR mutant were used to study the antiviral effect of IFN-alpha in cell culture. […] The number of single infected cells was determined by automated counting (FIG. 15). […]

## IFN-alpha: IFN-alpha 2b (Schering-Plough)
  antiviral effect on cell culture infection: inhibited cell culture infection with different NS5A genotypes in a dose-dependent manner
